Measured values from patent US6518061.

Biological target: IL-13 receptor (IL-13R) on human tumor cells (human)
Assay: cell-based or functional assay

Substance: cphIL-13-PE38QQR (circularly permuted human IL-13 fused to PE38QQR) (from UniProt P11439 278-389; P11439 406-638)
- IC50, cytotoxicity on several glioma cell lines: < 0.1 ng/mL
